Measured data: PubChem BioAssay AID504761 (Drosophila RNAi Screening Center, 2011)

Screen: 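Genome-wide fly cell screen for genes dengue virus requires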 (primary screen)
Cells: D.Mel-2 cells from Drosophila
Reagent: long dsRNA against Drosophila genes
Challenge: infection with dengue virus type 2; dose and infection time not stated
Detection: 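Cells stained for dengue envelope protein and imaged; percent of infected cells per well on duplicate plates, ranked by infection, with stained nuclei counted for cell number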
Reading the numbers: infection score: higher = more virus-infected cells
Rule for the call: 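Very low infection ranking in both replicate wells (chance probability at most 0.065), then a retest showing infection dropped 1.5-fold or more at p below 0.05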
Calls: active = confirmed: knock-down lowers infection; inactive = not picked or not confirmed
In all, the deposit lists about 22,000 reagents; this is an unselected part of those that have a named target and a result. Of all reagents, 116 (0.52%) got an active call. 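Calls depend on retest data that are not deposited; infection was ranked per plate without normalising between plates; the unit of the infection score is not given.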 Names joined by + are all predicted targets of the reagent. Not all columns of the deposit are shown. No sequences are given here. The record does not give: the amount of reagent, the time to read-out.

Gene | dsRNA | infection score, replicate 1 | infection score, replicate 2 | activity call
CG11300 | DRSC04104 | 12.9 | 21 | inactive
pyd3 | DRSC15459 | 2.98 | 3.45 | inactive
pyd3 | DRSC21640 | 2.89 | 1.9 | inactive
CG17991 | DRSC15294 | 11 | 1.15 | inactive
Mst57Db | DRSC21551 | 3.1 | 6.63 | inactive
CG14330 | DRSC14809 | 2.58 | 1.23 | inactive
AdamTS-A | DRSC14992 | 11.1 | 5.17 | inactive
AdamTS-A | DRSC15966 | 5.59 | 14.5 | inactive
CG15260 | DRSC01977 | 6.99 | 3.96 | inactive
Eig71Eg | DRSC11154 | 1.04 | 1.92 | inactive

2 entries from above, set out differently:
pyd3 [DRSC21640]
- infection score, replicate 1: 2.89
- infection score, replicate 2: 1.9
- activity call: inactive

CG17991 [DRSC15294]
- infection score, replicate 1: 11
- infection score, replicate 2: 1.15
- activity call: inactive

The results go on.
Gene | dsRNA | infection score, replicate 1 | infection score, replicate 2 | activity call
adp | DRSC06916 | 11.8 | 8.48 | inactive
Pop5 | DRSC10074 | 1.07 | 1.89 | inactive
E2f2 | DRSC03320 | 17.7 | 21.4 | inactive
RhoGAPp190 | DRSC20097 | 5.2 | 8.81 | inactive
RhoGAPp190 | DRSC20099 | 8.1 | 5.11 | inactive
Acsx1L | DRSC16014 | 8.35 | 4.28 | inactive
Acsx1L | DRSC25334 | 21.4 | 25.4 | inactive
CG16935 | DRSC06638 | 4.53 | 30.6 | inactive
CG15643 | DRSC19679 | 7.08 | 4.13 | inactive
CG15643 | DRSC27051 | 2.28 | 3.46 | inactive
beta4GalNAcTA | DRSC05944 | 1.29 | 1.04 | inactive
lncRNA:CR42862 + CG33229 | DRSC08497 | 14 | 22.3 | inactive
CG33476 | DRSC22888 | 2.19 | 9.47 | inactive
